The target in experiment [1] is JR-FLan/KI812.7 Env N183K/N273D/M425K (HIV-1 (JR-FL) | HIV-1 (CRF01_AE, individual KI812)).
Experiment [2] deals with JR-FLan/KI812.7 Env N273D (HIV-1 (JR-FL) | HIV-1 (CRF01_AE, individual KI812)).
Experiment [3] concerns the target JR-FLan/KI812.7 Env N183K/N273D (HIV-1 (JR-FL) | HIV-1 (CRF01_AE, individual KI812)).
For experiment [4], the target named is JR-FLan/KI812.7 Env (HIV-1 (JR-FL) | HIV-1 (CRF01_AE, individual KI812)).
For experiment [5], the target named is JR-FLan/KI812.7 Env M425K (HIV-1 (JR-FL) | HIV-1 (CRF01_AE, individual KI812)).
The target of experiment [6] is JR-FLan/KI812.7 Env N273D/M425K (HIV-1 (JR-FL) | HIV-1 (CRF01_AE, individual KI812)).
The target in experiment [7] is JR-FLan/KI812.7 Env N183K/M425K (HIV-1 (JR-FL) | HIV-1 (CRF01_AE, individual KI812)).
Experiment [8] concerns the target JR-FLan/KI812.7 Env N183K (HIV-1 (JR-FL) | HIV-1 (CRF01_AE, individual KI812)).

On to “recombinant human sCD4 (from UniProt P01730 26-396) (receptor)”, for which the EC50 of sCD4 for 50% inhibition of entry of luciferase-reporter pseudotyped virus into NP2/CD4/CXCR4/CCR5 cells (single-round entry assay, 48 h) is 0.22 µg/mL in experiment [1]; 6.9 µg/mL in experiment [2]; 8.6 µg/mL in experiment [3]; more than 10 µg/mL in experiment [4]; 0.42 µg/mL in experiment [5]; 0.14 µg/mL in experiment [6]. The EC50 of sCD4 for 50% inhibition of entry of luciferase-reporter pseudotyped virus into NP2/CD4/CXCR4/CCR5 cells (single-round entry assay, 48 h) was 0.35 µg/mL in experiment [7] and more than 10 µg/mL in experiment [8].

The values are drawn from publication PMC3929750.
